Results of unrelated studies side by side (data: NIAID ChemDB).

All rows: whole-cell or culture tests; organism: Mycobacterium tuberculosis

Rows are shuffled and stem from different studies.

compound	tested at	measure	method	strain	conditions	cells	value
O=C(NC12CC3CC(CC(C3)C1)C2)c1cc(=O)c2cc(Cl)cc(Cl)c2[nH]1	-	MIC90	visual reading / absorbance	H37Rv	-	-	40.89 µM
CCCc1cc(=O)oc2c3c(cc(OC(C)C)c12)O[C@H](C)[C@H](C)[C@@H]3O	-	MIC	-	H37Ra	-	-	16 µg/mL
COc1cc(C2C3=C(CCCC3=O)N(c3ccc(C)cc3)C3=C2C(=O)CCC3)c([N+](=O)[O-])cc1OC	6.25 µg/mL	inhibition	resazurin	H37Rv	-	-	-5%
O=C1NC(Nc2ccc(Cl)cc2)=N/C1=C\c1ccc(Cl)cc1Cl	12.5 µg/mL	inhibition	-	H37Rv	-	-	100%
CN1C(=O)[C@]2(CO)NC(=O)[C@@]1(Cc1ccccc1)SS[C@@]1(CO)NC(=O)[C@@](Cc3ccccc3)(SS2)N(C)C1=O	-	MIC	-	H37Ra	-	-	12.5 µg/mL
NC(=S)c1cc(N2CCCCC2)ccn1	-	MIC	-	331/81	-	-	500 µM
C=CC(C)(C)c1c2c(c(OC)c3ccc(=O)oc13)C=CC(C)(C)O2	-	MIC	-	-	-	-	50 µg/mL
S=c1[nH]nc(Cc2cccs2)n1/N=C\c1ccc(Cl)c(Cl)c1	6.25 µg/mL	inhibition	-	H37Rv (ATCC 27294)	-	-	55%
CC(C)(C)C1CCc2onc(C(=O)N3CCCCC3)c2C1	-	MIC	resazurin	Clinical isolate	-	-	16 µg/mL
COC(=O)CCc1cc(=O)oc2c(I)c(O)cc(O)c12	-	MIC bound	BACTEC	H37Rv	-	-	>12.5 µg/mL
C#CCSc1nnc(-c2ccc([N+](=O)[O-])o2)s1	6.25 µg/mL	inhibition	-	H37Rv	-	-	97%
O=C1NC(=NCc2ccc(Cl)cc2)N/C1=C\c1ccccc1Cl	-	MIC	-	H37Rv	-	-	>12.5 µg/mL
Cc1ccc(C2=Nn3c(nnc3C(C)C)SC2)cc1	-	MIC	resazurin	Clinical isolate	-	-	4 µg/mL
O=C1NC(=Nc2ccc(Cl)cc2Cl)N/C1=C\c1ccc(Cl)cc1Cl	12.5 µg/mL	inhibition	-	H37Rv	-	-	96%
CCCN=C(N)c1ccc(N2CCN(c3ccccc3)CC2)cc1	-	EC50	-	H37Rv	-	HEP-2	3.92 µM
O=[N+]([O-])c1cc(/C=N\n2c(Cc3cccs3)n[nH]c2=S)ccc1O	6.25 µg/mL	inhibition	-	H37Rv (ATCC 27294)	-	-	87%
CS[C@@]1(Cc2ccccc2)NC(=O)[C@@](Cc2ccccc2)(SC)NC1=O	-	MIC	-	H37Ra	-	-	25 µg/mL
C=CC(C)(C)c1c2c(c(OC)c3ccc(=O)oc13)C(=O)CC(C)(C)O2	-	MIC	-	-	-	-	50 µg/mL
Cc1ccc(C2(C)NC(=S)N(NC(N)=S)C2=S)cc1	-	MIC bound	BACTEC	H37Rv	-	-	>12.5 µg/mL
S=c1[nH]nc(Cc2cccs2)n1/N=C\c1ccc(Cl)cc1	6.25 µg/mL	inhibition	-	H37Rv (ATCC 27294)	-	-	54%
C=CC(C)(C)c1c2c(c(O)c3ccc(=O)oc13)C=CC(C)(C)O2	-	MIC	-	-	-	-	100 µg/mL
Cc1ccc(CNS(=O)(=O)c2ccc(-c3n[nH]c(C)c3C)o2)o1	-	MIC	resazurin	18b	-	-	8 µg/mL
N#Cc1cc(SCC(=O)NN)ccn1	-	MIC	-	331/81	-	-	500 µM
CCOC1(OCC)C(=O)N(c2ccc(Cl)c(Cl)c2)C(=O)N1c1ccc(Cl)c(Cl)c1	12.5 µg/mL	inhibition	BACTEC	H37Rv	-	-	-23%
CC1COc2c(N3CCN(C)CC3)c(F)cc3c(=O)c(C(=O)O)cn1c23	-	MIC	resazurin	CIBIN 99 (MDR-MTB)	-	-	0.5 µg/mL
NC(=S)c1ccnc(N2CCCCC2)c1	-	MIC	-	331/81	-	-	500 µM
Cc1cccc(NC(=O)c2cc3c(oc2=O)CC(C)(C)CC3=O)c1	-	MIC	resazurin	Clinical isolate	-	-	8 µg/mL
C#CCOc1c2c(c3c(CCC)cc(=O)oc3c1C(=O)CC)OC(C)(C)CC2	-	MIC	-	H37Ra	-	-	>128 µg/mL
O=C(O)c1[nH]c2ccccc2c1CNCCc1ccc(Cl)cc1	-	MIC	resazurin	18b	-	-	16 µg/mL
COc1ccccc1C1SCC(=O)N1NC(=O)c1ncc2cc(C(F)(F)F)ccc2n1	-	MIC	visual reading	H37Rv	-	-	2.81 µM
COc1ccc2c(=O)c(C)c(-c3ccccc3)oc2c1CN(C)C	12.8 µg/mL	inhibition	BACTEC	H37Rv	-	-	0%
NC(=O)c1cnccn1	-	MIC	BACTEC	H37Rv	-	-	32 µg/mL
COc1ccc(/C=N\n2c(Cc3cccs3)n[nH]c2=S)cc1O	6.25 µg/mL	inhibition	-	H37Rv (ATCC 27294)	-	-	44%
COc1ccc(C(=O)/C=C/c2ccccc2Cl)cc1	-	MIC	MTT	H37Rv	7 d	-	32 µg/mL
CCCSc1nnc(-c2ncc([N+](=O)[O-])n2C)s1	6.25 µg/mL	inhibition	-	H37Rv	-	-	97%
O=C(/C=C/c1ccccc1)c1ccc(F)cc1	-	MIC	resazurin	H37Rv	14 d	-	32 µg/mL
CCCc1cc(=O)oc2c(C(=O)CC)c(OCC(=O)OCC)c3c(c12)OC(C)(C)CC3	-	MIC	-	H37Ra	-	-	>128 µg/mL
CC1=CC(=O)c2c(ccc(-c3ccc4c(c3O)C(=O)C=C(C)C4=O)c2O)C1=O	-	MIC	resazurin	CIBIN 99 (MDR-MTB)	-	-	>100 µg/mL
C#CCOc1c2c(c3c(CCC)cc(=O)oc3c1C(=O)CC)OC(C)(C)C=C2	-	MIC	-	H37Ra	-	-	>128 µg/mL
O=C(NNC1O[C@@H](CO)[C@H](O)[C@H](O)[C@@H]1O)c1ccncc1	-	MIC90	-	H37Rv (ATCC 27294)	-	-	0.62 µg/mL
COC(=O)c1ccc(CSc2ccccc2NC(=S)Nc2cccc(C(F)(F)F)c2)o1	12.5 µg/mL	inhibition	BACTEC	H37Rv	-	-	-50%
N#CCCSc1cc(C(N)=S)ccn1	-	MIC	-	331/81	-	-	31 µM
Oc1ccc(/C=N\n2c(Cc3cccs3)n[nH]c2=S)cc1O	6.25 µg/mL	inhibition	-	H37Rv (ATCC 27294)	-	-	69%
O=C(NNC1O[C@@H](CO)[C@@H](O)[C@H](O)[C@H]1O)c1ccncc1	-	MIC90	-	H37Rv (ATCC 27294)	-	-	3.12 µg/mL
CNc1cc2oc(=O)cc(C)c2cc1C	-	MIC bound	BACTEC	H37Rv	-	-	>12.5 µg/mL
CCCc1cc(=O)oc2c(C(=O)CC)c(OCC)c3c(c12)OC(C)(C)C=C3	-	MIC	-	H37Ra	-	-	>128 µg/mL
O=C(NNC1OC[C@@H](O)[C@H](O)[C@@H]1O)c1ccncc1	-	MIC90	-	H37Rv (ATCC 27294)	-	-	>100 µg/mL
O=C(NN1C(=O)CSC1c1ccc(I)cc1Br)c1ncc2cc(C(F)(F)F)ccc2n1	-	MIC	visual reading	H37Rv	-	-	3.4 µM
CCN(CC)CCCC(C)Nc1cc(/C=C/c2ccc(Cl)cc2)nc2ccc(N(C)C)cc12	-	MIC bound	resazurin	H37Rv	-	-	<6.25 µg/mL
CC1CCN(C(=O)c2ccc(NC(=O)C3CC(=O)OC34CCCCC4)cc2)CC1	-	MIC	resazurin	18b	-	-	16 µg/mL
C=CCSc1nnc(-c2ccc([N+](=O)[O-])o2)s1	-	MIC	-	H37Rv	-	-	>6.25 µg/mL
CC(C)=CCc1c(O)cc(O)c(C(=O)/C=C/c2ccccc2)c1O	-	MIC	-	H37Rv	-	-	50 µg/mL
Cc1cc(NCCN(C(C)C)C(C)C)nc(/N=C(\N)Nc2ccc(Cl)c(C(F)(F)F)c2)n1	-	MIC bound	BACTEC	H37Rv	-	-	≤12.5 µg/mL
NCCC(O)C(N)CC(=O)NC1CNC(=O)C(C2CCN=C(N)N2)NC(=O)/C(=C/NC(N)=O)NC(=O)C(CO)NC(=O)C(CO)NC1=O	-	MIC	-	H37Rv	-	-	3.2 µg/mL
NC(=S)c1ccnc(SCC(O)CO)c1	-	MIC	-	331/81	-	-	250 µM
COc1ccc(/C=N\n2c(Cc3cccs3)n[nH]c2=S)cc1	6.25 µg/mL	inhibition	-	H37Rv (ATCC 27294)	-	-	54%
C=CCOc1c2c(c3c(CCC)cc(=O)oc3c1C(=O)CC)OC(C)(C)CC2	-	MIC	-	H37Ra	-	-	>128 µg/mL
CCOC(=O)CSc1ccnc(C(N)=S)c1	-	MIC	-	331/81	-	-	1000 µM
Brc1ccc2[nH]c3nc4ccccc4nc3c2c1	-	MIC bound	resazurin	H37Rv	-	-	>6.25 µg/mL
CCOC(=O)CSc1ccnc(C#N)c1	-	MIC	-	331/81	-	-	500 µM
O=[N+]([O-])c1ccc(-c2nnc(SCc3ccccc3[N+](=O)[O-])s2)o1	-	MIC	-	H37Rv	-	-	6.25 µg/mL
N#CCCSc1ccnc(C#N)c1	-	MIC	-	331/81	-	-	125 µM
C/C=N/NC(=O)c1ccncc1	3 µg/mL	inhibition	colony count	Erdman	-	-	90%
O=C1NC(Nc2ccc(Cl)cc2)=N/C1=C\c1c(Cl)cccc1Cl	-	MIC	-	H37Rv	-	-	>12.5 µg/mL
OCCNCCNCCO	-	MIC bound	resazurin	H37Rv	-	-	>6.25 µg/mL
Cc1ccc(C(=O)/C=C/c2ccccc2)c(F)c1	-	MIC	MTT	H37Rv	21 d	-	32 µg/mL
CC1=CC(=O)c2c(O)cccc2C1=O	-	MIC	resazurin	H37Rv (S-MTB)	-	-	1.56 µg/mL
O=C(NN1C(=O)CSC1c1ccc(O)cc1)c1ncc2cc(C(F)(F)F)ccc2n1	-	MIC	visual reading	H37Rv	-	-	1.12 µM
CCCCN(CCCC)CCNc1ccc(C)c2sc3ccc(Cl)cc3c(=O)c12	12.5 µg/mL	inhibition	BACTEC	H37Rv	-	-	-11%
O=C(NC1CCCCCCC1)c1ccc2ccccc2c1	-	MIC90	visual reading / absorbance	H37Rv	-	-	7.11 µM
O=c1[nH]c(=O)c2nc3c([N+](=O)[O-])ccc(-c4cccc5ccccc45)c3nc2[nH]1	-	MIC bound	BACTEC	H37Rv	-	-	>12.5 µg/mL
O=C(/C=C/c1ccccc1Cl)c1ccccc1	-	MIC	resazurin	H37Rv	14 d	-	32 µg/mL
C/C(CCn1[nH]c(=O)ccc1=O)=N\NC(=O)C(N)=O	-	MIC bound	BACTEC	H37Rv	-	-	>12.5 µg/mL
O=C(NNC1OC[C@H](O)[C@@H](O)[C@@H]1O)c1ccncc1	-	MIC90	-	H37Rv (ATCC 27294)	-	-	>100 µg/mL
O=C(NN1C(=O)CSC1c1ccc([N+](=O)[O-])cc1Br)c1ncc2cc(C(F)(F)F)ccc2n1	-	MIC	visual reading	H37Rv	-	-	0.96 µM
N#Cc1ccc(/C=N\n2c(Cc3cccs3)n[nH]c2=S)cc1	6.25 µg/mL	inhibition	-	H37Rv (ATCC 27294)	-	-	58%
CC1CN(C(=O)/C=C/C(=O)OC2CCCCC2)CCN1C(=O)/C=C/C(=O)OC1CCCCC1	-	MIC	-	TAC-R	-	-	12.5 µg/mL
CC1=C(C2=C(C)C(=O)c3cccc(O)c3C2=O)C(=O)c2c(O)cccc2C1=O	-	MIC	resazurin	H37Rv (S-MTB)	-	-	3.13 µg/mL
O=C(NN1C(=O)CSC1c1ccc(Cl)cc1Cl)c1ncc2cc(C(F)(F)F)ccc2n1	-	MIC	visual reading	H37Rv	-	-	2.58 µM
COc1ccc(C(=O)/C=C/c2ccc(F)cc2Cl)cc1	-	MIC	MTT	H37Rv	-	-	32 µg/mL
COc1ccc(NC(=O)CC/C(CC(=O)c2ccco2)=N/NC(=O)C(N)=O)cc1	12.5 µg/mL	inhibition	BACTEC	H37Rv	-	-	0%
O=[N+]([O-])c1ccc(CSc2nnc(-c3ccc([N+](=O)[O-])o3)s2)cc1	-	MIC	-	H37Rv	-	-	3.13 µg/mL
O=C(OCC1OC(n2ccn(C3OC(COC(=O)c4ccccc4)C(OC(=O)c4ccccc4)C3OC(=O)c3ccccc3)c2=S)C(OC(=O)c2ccccc2)C1OC(=O)c1ccccc1)c1ccccc1	-	MIC bound	BACTEC	H37Rv	-	-	>12.5 µg/mL
Cc1ccc(C)c(C2SCC(=O)N2NC(=O)c2ncc3cc(C(F)(F)F)ccc3n2)c1	-	MIC	visual reading	H37Rv	-	-	1.27 µM
CCOP(=O)(OCC)C(C(=O)OC)C(=O)C(=O)Nc1c(C)cc(Br)cc1C	-	MIC bound	resazurin	H37Rv	-	-	>6.25 µg/mL
O=Cc1cc2c(cc1O)[nH]c1ccccc12	-	MIC	-	-	-	-	200 µg/mL
COc1ccc(S(=O)(=O)NC(=S)S)cc1	-	MIC	-	H37Rv	-	-	4 µg/mL
CC1=C(O)c2cccc(O)c2C(=O)C1=O	-	MIC	resazurin	H37Rv (S-MTB)	-	-	>100 µg/mL
Cc1c2c(c(C)c3ccncc13)S(=O)(=O)c1ccccc1-2	-	MIC bound	resazurin	H37Rv	-	-	>6.25 µg/mL
CCCSc1nnc(-c2ccc([N+](=O)[O-])o2)s1	-	MIC	-	H37Rv	-	-	>6.25 µg/mL

The first 7 rows once more:

compound	tested at	measure	method	strain	conditions	cells	value
O=C(NC12CC3CC(CC(C3)C1)C2)c1cc(=O)c2cc(Cl)cc(Cl)c2[nH]1	-	MIC90	visual reading / absorbance	H37Rv	-	-	40.89 µM
CCCc1cc(=O)oc2c3c(cc(OC(C)C)c12)O[C@H](C)[C@H](C)[C@@H]3O	-	MIC	-	H37Ra	-	-	16 µg/mL
COc1cc(C2C3=C(CCCC3=O)N(c3ccc(C)cc3)C3=C2C(=O)CCC3)c([N+](=O)[O-])cc1OC	6.25 µg/mL	inhibition	resazurin	H37Rv	-	-	-5%
O=C1NC(Nc2ccc(Cl)cc2)=N/C1=C\c1ccc(Cl)cc1Cl	12.5 µg/mL	inhibition	-	H37Rv	-	-	100%
CN1C(=O)[C@]2(CO)NC(=O)[C@@]1(Cc1ccccc1)SS[C@@]1(CO)NC(=O)[C@@](Cc3ccccc3)(SS2)N(C)C1=O	-	MIC	-	H37Ra	-	-	12.5 µg/mL
NC(=S)c1cc(N2CCCCC2)ccn1	-	MIC	-	331/81	-	-	500 µM
C=CC(C)(C)c1c2c(c(OC)c3ccc(=O)oc13)C=CC(C)(C)O2	-	MIC	-	-	-	-	50 µg/mL

A number after MIC or MFC names an inhibition level or a share of isolates. An empty or dashed field is not shown. ECn is the concentration giving n% inhibition of infection, replication or growth. MIC bound comes from a single tested concentration. Percent inhibition refers to the dose given; in toxicity tests it is the harm to the cells.